# Data published in patent publication US20230296621A1.
# Legend:
# [1] = target: S sensors S15 + L15: S(aa 328-533)-15aa-SmBiT and S(aa 328-533)-15aa-LgBiT (SARS-CoV-2)
# [2] = target: S sensors S25 + L25: S(aa 328-533)-25aa-SmBiT and S(aa 328-533)-25aa-LgBiT (SARS-CoV-2)
substance,measurement,setting,value
CR3022 IgG (antibody),luminescence signal,[1],132
same,luminescence signal,[2],28
